B1: Amyloid-beta A4 precursor protein-binding family B member 2 (protein, UniProt Q9DBR4 1-760, looked up)
Amyloid beta precursor …: MSEVLPADSGVGTLAVFMASSGSTDIANRNSPATPPNTLNLRSSHNELLNAEIKHSDAKNSTPPKCRKKYALTNIQAAMGLSDPAVQPLLGNGSANIKLVKNGENQLRKAAEQGQQDPNKNLSPAAVINLTSEKLEVKDPHPQESSGCEILPSQPRRTKSFLNYYADLETSARELGQNLGPCQGVGEEKAQPGPGQAPVVIGNGDLLPQKPNKPQSSPEDGQVATVSSSPETKKDHPKTGAKTDCALHRIQNLAPSDEESSWTTLSQDSASPSSPDETDIWSDHSFQTDPDLPPGWKRVNDIAGTYYWHIPTGTTQWERPVSIPADLHGSRKGSLSSVTPSPTPENEKQPWSDFAVLNGGKINSDIWKDLHAATVNPDPSLKEFEGATLRYASLKLRNAPHGDDDDSCSINSDPEAKCFAVRSLGWVEMAEEDLAPGKSSVAVNNCIRQLSYCKNDIRDTVGIWGEGKDMYLSLENDMLSLVDPMDRSVLHSQPIVNIRVWGVGRDNGRERDFAYVARDKDTRILKCHVFRCDTPAKAIATSLHEICSKIMAERKNAKALACSSLQERTNMSLDVPLQVDFPTPKTELVQKFRVQYLGMLPVDRPVGMDTLNSAIENLMTSSSKEDWPSVNMNVADATVTVISEKNEEEVLVECRVRFLSFMGVGKDVHTFAFIMDTGNQRFECHVFWCEPNAANVSEAVQAACMLRYQKCLVARPPSQKVRPPPPPADSVTRRVTTNVKRGVLSLIDTLKQKRPVTETP
B2: Fermitin family homolog 3 (protein, UniProt Q8K1B8 1-665, looked up)
Fermitin family homolog 3: MAGMKTASGDYIDSSWELRVFVGEEDPEAQSVTLRVTGESHIGGVLLKIVEEINRKQDWSDHAIWWEQKRQWLLQTHWTLDKYGILADARLFFGPQHRPVILRLPNRRVLRLRASFSKPLFQTVAAICRLLSIRHPEELSLLRAPEKKEKKKKEKEPEEEVHDLTKVVLAGGVAPTLFRGMPAHFSDSAQTEACYHMLSRPQPAPDPLLLQRLPRPSSLPDKTQLHSRWLDSSRCLMQQGIKAGDVLWLRFKYYSFFDLDPKTDPVRLTQLYEQARWDLLTEEIDCTEEEMMVFAALQYHINKLTLSGDVGELASGDLGLDDLDAALNNLEVKLKGSAPSDMLDSLTTIPELKDHLRIFRPRKLTLKGYRQYWVVFKDTTLSYYKSQDEAPGDPTQQLNLKGCEVVPDVNVSGQKFCIKLLVPSPEGMSEIYLRCQDEQQYAQWMAACRLASKGRTMADSSYASEVQAILAFLSLQRAGGSNGGSGNKPQGPEAPAEGLNPYGLVAPRFQRKFKAKQLTPRILEAHQNVAQLSLTEAQLRFIQAWQSLPDFGISYVMVRFKGSRKDEILGIANNRLIRIDLAVGDVVKTWRFSNMRQWNVNWDIRQVAIEFDEHINVAFSCVSASCRIVHEYIGGYIFLSTRERARGEELDEDLFLQLTGGHEAF
B3: Insulin-like growth factor-binding protein complex acid labile subunit (protein, UniProt P70389 24-603, looked up)
Insulin-like growth …: YLQGTDPGASADAEGPQCPVTCTCSYDDYTDELSVFCSSRNLTQLPDGIPVSTRALWLDGNNLSSIPSAAFQNLSSLDFLNLQGSWLRSLEPQALLGLQNLYHLHLERNLLRSLAAGLFRHTPSLASLSLGNNLLGRLEEGLFRGLSHLWDLNLGWNSLVVLPDTVFQGLGNLHELVLAGNKLTYLQPALLCGLGELRELDLSRNALRSVKANVFIHLPRLQKLYLDRNLITAVAPRAFLGMKALRWLDLSHNRVAGLLEDTFPGLLGLHVLRLAHNAITSLRPRTFKDLHFLEELQLGHNRIRQLGEKTFEGLGQLEVLTLNDNQIHEVKVGAFFGLFNVAVMNLSGNCLRSLPEHVFQGLGRLHSLHLEHSCLGRIRLHTFAGLSGLRRLFLRDNSISSIEEQSLAGLSELLELDLTANQLTHLPRQLFQGLGQLEYLLLSNNQLTMLSEDVLGPLQRAFWLDLSHNRLETPAEGLFSSLGRLRYLNLRNNSLQTFVPQPGLERLWLDANPWDCSCPLKALRDFALQNPGVVPRFVQTVCEGDDCQPVYTYNNITCAGPANVSGLDLRDISETLFVHC
B4: Serglycin (protein, UniProt P13609 75-152, looked up)
Serglycin: EGPSKDFISNYDDYGSGSGSGSGSGSGSGSGSGSGFLGDMEWEYQPTDESNIVYFNYKPFDRILTEQNQDQPEDDFII
B5: Alpha-actinin-1 (protein, UniProt Q7TPR4 1-892, looked up)
Alpha-actinin-1: MDHYDSQQTNDYMQPEEDWDRDLLLDPAWEKQQRKTFTAWCNSHLRKAGTQIENIEEDFRDGLKLMLLLEVISGERLAKPERGKMRVHKISNVNKALDFIASKGVKLVSIGAEEIVDGNVKMTLGMIWTIILRFAIQDISVEETSAKEGLLLWCQRKTAPYKNVNIQNFHISWKDGLGFCALIHRHRPELIDYGKLRKDDPLTNLNTAFDVAERFLDIPKMLDAEDIVGTARPDEKAIMTYVSSFYHAFSGAQKAETAANRICKVLAVNQENEQLMEDYEKLASDLLEWIRRTIPWLENRVPENTMHAMQQKLEDFRDYRRLHKPPKVQEKCQLEINFNTLQTKLRLSNRPAFMPSEGRMVSDINNAWGCLEQAEKGYEEWLLNEIRRLERLDHLAEKFRQKASIHEAWTDGKEAMLRQKDYETATLSEIKALLKKHEAFESDLAAHQDRVEQIAAIAQELNELDYYDSPSVNARCQKICDQWDNLGALTQKRREALERTEKLLETIDQLYLEYAKRAAPFNNWMEGAMEDLQDTFIVHTIEEIQGLTTAHEQFKATLPDADKERLAILGIHNEVSKIVQTYHVNMAGTNPYTTITPQEINGKWDHVRQLVPRRDQALTEEHARQQHNERLRKQFGAQANVIGPWIQTKMEEIGRISIEMHGTLEDQLSHLRQYEKSIVNYKPKIDQLECDHQLIQEALIFDNKHTNYNMEHIRVGWEQLLTTIARTINEVENQILTRDAKGISQEQMNEFRASFNHFDRDHSGTLGPEEFKACLISLGYDIGNDPQGEAEFARIMSIVDPNRLGVVTFQAFIDFMSRETADTDTADQVMASFKILAGDKNYITEDELRRELPPDQAEYCIARMAPYAGPDSVPGALDYMSFSTALYGESDL
B6: Leukemia inhibitory factor receptor (protein, UniProt P42703 44-1092, looked up)
Leukemia inhibitory factor …: LKRGVQDLKCTTNNMRVWDCTWPAPLGVSPGTVKDICIKDRFHSCHPLETTNVKIPALSPGDHEVTINYLNGFQSKFTLNEKDVSLIPETPEILDLSADFFTSSLLLKWNDRGSALPHPSNATWEIKVLQNPRTEPVALVLLNTMLSGKDTVQHWNWTSDLPLQCATHSVSIRWHIDSPHFSGYKEWSDWSPLKNISWIRNTETNVFPQDKVVLAGSNMTICCMSPTKVLSGQIGNTLRPLIHLYGQTVAIHILNIPVSENSGTNIIFITDDDVYGTVVFAGYPPDVPQKLSCETHDLKEIICSWNPGRITGLVGPRNTEYTLFESISGKSAVFHRIEGLTNETYRLGVQMHPGQEIHNFTLTGRNPLGQAQSAVVINVTERVAPHDPTSLKVKDINSTVVTFSWYLPGNFTKINLLCQIEICKANSKKEVRNATIRGAEDSTYHVAVDKLNPYTAYTFRVRCSSKTFWKWSRWSDEKRHLTTEATPSKGPDTWREWSSDGKNLIVYWKPLPINEANGKILSYNVSCSLNEETQSVLEIFDPQHRAEIQLSKNDYIISVVARNSAGSSPPSKIASMEIPNDDITVEQAVGLGNRIFLTWRHDPNMTCDYVIKWCNSSRSEPCLLDWRKVPSNSTETVIESDQFQPGVRYNFYLYGCTNQGYQLLRSIIGYVEELAPIVAPNFTVEDTSADSILVKWDDIPVEELRGFLRGYLFYFQKGERDTPKTRSLEPHHSDIKLKNITDISQKTLRIADLQGKTSYHLVLRAYTHGGLGPEKSMFVVTKENSVGLIIAILIPVAVAVIVGVVTSILCYRKREWIKETFYPDIPNPENCKALQFQKSVCEGSNALKTLEMNPCTPNNVEVLESRSIVPKIEDTEIISPVAERPGERSEVDPENHVVVSYCPPIIEEEITNPAADEVGGASQVVYIDVQSMYQPQAKAEEEQDVDPVVVAGYKPQMRLPISPAVEDTAAEDEEGKTAGYRPQANVNTWNLVSPDSPRSTDSNNEVVSFGSPCSINSRQFLIPPKDEDSPKSNGGGWSFTNFFQNKPND
B7: L-selectin (protein, UniProt P18337 39-372, looked up)
L-selectin: WTYHYSEKPMNWENARKFCKQNYTDLVAIQNKREIEYLENTLPKSPYYYWIGIRKIGKMWTWVGTNKTLTKEAENWGAGEPNNKKSKEDCVEIYIKRERDSGKWNDDACHKRKAALCYTASCQPGSCNGRGECVETINNHTCICDAGYYGPQCQYVVQCEPLEAPELGTMDCIHPLGNFSFQSKCAFNCSEGRELLGTAETQCGASGNWSSPEPICQVVQCEPLEAPELGTMDCIHPLGNFSFQSKCAFNCSEGRELLGTAETQCGASGNWSSPEPICQETNRSFSKIKEGDYNPLFIPVAVMVTAFSGLAFLIWLARRLKKGKKSQERMDDPY
B8: Platelet glycoprotein Ib alpha chain (protein, UniProt O35930 17-734, looked up)
Platelet glycoprotein Ib …: QHTCSISKVTSLLEVNCENKKLTALPADLPADTGILHLGENQLGTFSTASLVHFTHLTYLYLDRCELTSLQTNGKLIKLENLDLSHNNLKSLPSLGWALPALTTLDVSFNKLGSLSPGVLDGLSQLQELYLQNNDLKSLPPGLLLPTTKLKKLNLANNKLRELPSGLLDGLEDLDTLYLQRNWLRTIPKGFFGTLLLPFVFLHANSWYCDCEILYFRHWLQENANNVYLWKQGVDVKDTTPNVASVRCANLDNAPVYSYPGKGCPTSSGDTDYDDYDDIPDVPATRTEVKFSTNTKVHTTHWSLLAAAPSTSQDSQMISLPPTHKPTKKQSTFIHTQSPGFTTLPETMESNPTFYSLKLNTVLIPSPTTLEPTSTQATPEPNIQPMLTTSTLTTPEHSTTPVPTTTILTTPEHSTIPVPTTAILTTPKPSTIPVPTTATLTTLEPSTTPVPTTATLTTPEPSTTLVPTTATLTTPEHSTTPVPTTATLTTPEHSTTPVPTTATLTTPEPSTTLTNLVSTISPVLTTTLTTPESTPIETILEQFFTTELTLLPTLESTTTIIPEQNSFLNLPEVALVSSDTSESSPFLNSDFCCFLPLGFYVLGLLWLLFASVVLILLLTWTWHVTPHSLDMEQSAALATSTHTTSLEVQRARQVTMPRAWLLFLQGSLPTFRSSLFLWVRPNGRVGPLVAGRRPSALSQGRGQDLLGTVGIRYSGHSL

System: coronal proteins on NPs
Parameters: species or system mouse
Settings: for V5 Sera_Nanoparticles Quantitative Value (Normalized Total Spectra): HBPE-NPs incubated 1 h with IAV day 5 (V5) mouse sera, 20:1 NP:sera, centrifuged and washed; for V5 Sera Alone (Control) Quantitative Value (Normalized Total Spectra): IAV day 5 (V5) mouse sera alone, no NPs (sera-only control)

Molecule	V5 Sera_Nanoparticles Quantitative Value (Normalized Total Spectra)	V5 Sera Alone (Control) Quantitative Value (Normalized Total Spectra)
B1	1.0879	0
B2	1.0879	1.8505
B3	1.0879	1.8505
B4	1.0879	1.8505
B5	1.0879	0.9252
B6	1.0879	0.9252
B7	1.0879	0
B8	1.0879	0

Reference: patent US20240122867A1, “CORONAL PROTEIN-COATED NANOPARTICLES AND USES THEREOF” (UNIVERSITY OF CENTRAL FLORIDA RESEARCH FOUNDATION, INC., priority 2021, published 2024)
